# Measured values from paper PMC9269068, “Ultrapotent antibodies against diverse and highly transmissible SARS-CoV-2 variants” (2021).
# Key:
# [1] = target: full-length S from SARS CoV-2 (WA-1) (SARS-CoV-2) (UniProt P0DTC2)
# [2] = target: full-length S B.1.258.24 (N439K/D614G) (SARS-CoV-2) (UniProt P0DTC2)
Substance,"pseudovirus (lentivirus) neutralisation IC50, 293T-ACE2 cells; […] [1]",fold reduction in binding (MFI) against D614G [2]
A19-61.1,0.0709 µg/mL,
CB6,,< 2 fold
